Results published in paper PMC4393083, “Antiviral Activity and Possible Mechanism of Action of Constituents Identified in Paeonia lactiflora Root toward Human Rhinoviruses” (PLoS ONE, 2015).

Legend:
Format in all cases: cell-based, human rhinovirus
HRV-4 [1] = assay: Cytopathic effect inhibition assay (MTT), HRV-4 in HeLa cells; settings: CC50/IC50, HeLa cells
Description: Extraction procedures of air-dried root of P. lactiflora were performed as described previously by Ngan et al.. For isolation of active principles, viral CPE inhibition assay toward HRV-4 in HeLa cell was used. […]. Column fractions were monitored by TLC on silica gel plates developed with chloroform and methanol (7:3 by volume) mobile phase. Fractions with similar R f values on the TLC plates were pooled. Active fractions 4 to 5 (EI, 2.44 g) and 7 (EII, 0.569 g) were obtained. The active fraction EI was rechromatographed on a silica gel column by elution with chloroform and methanol (70:30 by volume) to give nine fractions (each about 450 mL). A preparative HPLC was used for separation of constituents from the active fractions 3 to 5 (0.176 g). The column was a 4.6 mm i.d. × 150 mm Eclipse XDB-C18 (Agilent, Santa Clara, CA) using a mobile phase of methanol and water (3:7 by volume) at a flow rate of 0.5 mL/min. Chromatographic separations were monitored using a UV detector at 260 nm. […]. The three antiviral principles were characterized as paeonol (PA) (1), gallic acid (GA) (2), and 1,2,3,4,6-penta-O-galloyl-β-D-glucopyranose (PGG) (3) (Fig 1) by spectroscopic analyses, including MS and NMR. PA (1): compound 1 was isolated as an antibacterial principle from P. lactiflora root in our previous work, and the spectral data of compound 1 was largely identical to the published data. GA (2) was identified on the basis of the following evidence: white powder. UV (MeOH): λmax nm = 260. FT-IR: v max cm^–1 = 3491–3063 (OH stretch), 1608 (aromatic C = C). […] The interpretations of proton and carbon signals of compound 2 were largely consistent with those of Sakar et al.. PGG (3): compound 3 was isolated as an antibacterial principle from P. lactiflora root in our previous work, and the spectral data of compound 3 was largely identical to the published data.
Monolayers of HeLa and MRC5 cells were seeded onto a 96-well culture plate as stated previously. […] Viral inhibition rate (VIR) (%) was calculated according to the formula [21], VIR = (A tV—A cV)/(A cd—A cV) × 100, where A tV is the optical density measured with a given concentration of the test compound in HRV infected cells; A cV is the optical density measured for the control untreated HRV infected cells; A cd is the optical density measured for the control untreated HRV uninfected cells.
The CC50 and IC50 values were determined using GraphPad Prism 5 software program (GraphPad Software, La Jolla, CA). […] The selectivity index (SI) was determined as the ratio of CC50 to IC50 [23]. […] Data from two groups were analyzed by a Student’s t-test, and multiple groups were analyzed by a one-way analysis of variance and Bonferroni multiple comparison post-test.

HRV-2 [2] = assay: Cytopathic effect inhibition assay (MTT), HRV-2 in HeLa cells; settings: CC50/IC50, HeLa cells
Description: (§1) Monolayers of HeLa and MRC5 cells were seeded onto a 96-well culture plate as stated previously. Subsequently, 90 μL media containing several different concentrations (1–1000 μg/mL) of each test material in DMSO was put into the wells, and then 10 μL of 10×TCID50 of the virus stock was added to produce an appropriate CPE within 2 days after infection. Ribavirin served as a reference control and was similarly prepared. Negative controls consisted of the DMSO solution. Viral inhibition rate (VIR) (%) was calculated according to the formula [21], VIR = (A tV—A cV)/(A cd—A cV) × 100, where A tV is the optical density measured with a given concentration of the test compound in HRV infected cells; A cV is the optical density measured for the control untreated HRV infected cells; A cd is the optical density measured for the control untreated HRV uninfected cells.
(§2) The CC50 and IC50 values were determined using GraphPad Prism 5 software program (GraphPad Software, La Jolla, CA). […] The selectivity index (SI) was determined as the ratio of CC50 to IC50 [23]. All data represent the mean ± SD of duplicate or triplicate samples of three independent experiments. Statistical analyses were carried out using SAS 9.13 program (SAS Institute, Cary, NC). Data from two groups were analyzed by a Student’s t-test, and multiple groups were analyzed by a one-way analysis of variance and Bonferroni multiple comparison post-test.

HRV-2 [3] = assay: Cytopathic effect inhibition assay (MTT), HRV-2 in MRC5 cells; settings: CC50/IC50, MRC5 cells
Description: as §1, §2

HRV-4 [4] = assay: Cytopathic effect inhibition assay (MTT), HRV-4 in MRC5 cells; settings: CC50/IC50, MRC5 cells
Description: as §1, §2

Compound	SI HRV-4 (HRV-4 [1])	SI HRV-2 (HRV-2 [2])	SI HRV-2 (HRV-2 [3])	SI HRV-4 (HRV-4 [4])
O=C(O)c1cc(O)c(O)c(O)c1 [GA, gallic acid]	3.3	3.5	–	–
COc1ccc(C(C)=O)c(O)c1 [PA, paeonol]	6.1	5.2	6.2	6.4
O=C(OC[C@H]1O[C@@H](OC(=O)c2cc(O)c(O)c(O)c2)[C@H](OC(=O)c2cc(O)c(O)c(O)c2)[C@@H](OC(=O)c2cc(O)c(O)c(O)c2)[C@@H]1OC(=O)c1cc(O)c(O)c(O)c1)c1cc(O)c(O)c(O)c1 [PGG, 1,2,3,4,6-penta-O-galloyl-β-D-glucopyranose]	7.6	9.4	6.1	6.3
NC(=O)c1ncn([C@@H]2O[C@H](CO)[C@@H](O)[C@H]2O)n1 [Ribavirin, reference compound]	7.2	7.7	9.1	7
